PubChem BioAssay AID1259414, Drosophila RNAi Screening Center, 2018
Aim: 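Fly genes that alter Wolbachia amount inside host cells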 (primary screen). System: Drosophila JW18 cells infected with Wolbachia. Reagents: long dsRNA against Drosophila genes, 0.25 µg dsRNA per well of a 384-well plate. Timing: 5 days. Conditions: cells persistently infected with Wolbachia before knock-down; no added drug. Detection: 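Automated imaging of bacterial rRNA staining divided by host cell count, reported as plate-normalised robust z-score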. Reading the numbers: Wolbachia per cell robust z: higher = more Wolbachia per host cell than the plate typical. Hit rule: 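Hit when robust z is 1.5 or more, or -1.5 or less, in at least two of three replicates; excludes dsRNAs with several or no targets, genes not expressed in JW18 and well A1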.
The deposit covers about 24,000 reagents; shown is a random part of those that have a named target and a result. Of all reagents, about 1,210 (5%) are marked active. 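Inactive calls also include excluded dsRNAs with several or no targets, genes unexpressed in JW18, and well A1, regardless of score.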 Reagent sequences are not shown.

gene | amplicon | Wolbachia per cell robust z, rep 1 | Wolbachia per cell robust z, rep 2 | Wolbachia per cell robust z, rep 3 | Call
Vps2 (Vacuolar protein sorting 2) | DRSC14886 | 2.67 | 4.05 | 4.47 | active
Vps2 (Vacuolar protein sorting 2) | DRSC27194 | 1.13 | 0.758 | 1.5 | inactive
CG9752 | DRSC04562 | 0.684 | 0.968 | 0.156 | inactive
Cph (Chronophage) | DRSC25005 | 0.641 | 0.297 | 0.538 | inactive
Cph (Chronophage) | DRSC37513 | -0.377 | -1.51 | 0.752 | inactive
CG8299 | DRSC07139 | 0.703 | 1.16 | 0.247 | inactive
CG8299 | DRSC25580 | -1.37 | -0.77 | -0.923 | inactive
Rpn5 (Regulatory particle non-ATPase 5) | DRSC12367 | 0.627 | 0.808 | -0.682 | inactive
Rpn5 (Regulatory particle non-ATPase 5) | DRSC28279 | 1.54 | 2.4 | 0.802 | active
CG5504 | DRSC04701 | 0.791 | -1.72 | 0.56 | inactive
lncRNA:CR31386 (long non-coding RNA:CR31386) | DRSC23186 | 1.04 | 0.846 | 0.857 | inactive
lncRNA:CR31386 (long non-coding RNA:CR31386) | DRSC25849 | -0.436 | -0.922 | -0.663 | inactive
beta-Man (beta-Mannosidase) | DRSC12208 | 0.537 | -1.69 | 0.61 | inactive
beta-Man (beta-Mannosidase) | DRSC12209 | 0.378 | 1.7 | 0.358 | inactive
agt (O-6-alkylguanine-DNA alkyltransferase) | DRSC12611 | -0.133 | 0.551 | 0.818 | inactive
CG11504 | DRSC14318 | 0.0198 | 0.502 | -0.261 | inactive
Sytbeta (Synaptotagmin beta) | DRSC10009 | -0.92 | -0.00143 | 0.733 | inactive
Sytbeta (Synaptotagmin beta) | DRSC10351 | -0.3 | -1.48 | -0.9 | inactive
CG9592 | DRSC11078 | 0.163 | -0.159 | -0.591 | inactive
Cyp6v1 (Cytochrome P450 6v1) | DRSC20565 | 0.755 | 0.457 | -0.841 | inactive
Cyp6v1 (Cytochrome P450 6v1) | DRSC29247 | -0.503 | -0.682 | -0.818 | inactive
Tom40 (Translocase of outer membrane 40) | DRSC18796 | -1.38 | -0.274 | 0.473 | inactive
Lip4 (Lipase 4) | DRSC02930 | 0.92 | -1.36 | 0.0643 | inactive
CG34354 | DRSC15645 | -3.12 | 1.06 | -1.82 | inactive
CG34354 | DRSC23054 | 0.019 | 0.298 | 0.344 | inactive
CG13725 | DRSC10054 | -2.32 | -0.471 | -0.409 | inactive
CG6503 | DRSC16056 | 1.09 | -0.977 | -0.474 | inactive
CG6503 | DRSC29619 | 0.672 | -0.854 | 0.164 | inactive

Only “Wolbachia per cell robust z, rep 2” (3 entries from above):
Sytbeta (Synaptotagmin beta) [DRSC10009] = -0.00143
Sytbeta (Synaptotagmin beta) [DRSC10351] = -1.48
CG9592 [DRSC11078] = -0.159
